A mixed list of measured activities; the numbers were collected in NIAID ChemDB.

All rows: whole-cell or culture tests; species: HIV-1; read by: cytopathic effect / MTT; endpoint: EC50

Neighbouring rows are from separate reports. An empty or dashed field is not shown. ECn: concentration that inhibits the pathogen or its effect by n%.

SMILES	changes	strain or isolate	setting	cell line	result
CC(C)c1c(C(=O)c2cc(C(F)(F)F)cc(C(F)(F)F)c2)n(Cc2ccccn2)c(=O)[nH]c1=O				MT-4	1.8 µg/mL
CCOC(=O)c1cc(-c2cccc(OC)c2)n(-c2cccc(Cl)c2)c1C				MT-4	>100 µM
O=C(Nc1sccc1S(=O)(=O)c1ccccc1)c1cccnc1		IIIB		CEM + CEM/O	>1.6 µg/mL
CCOCn1c(Cc2ccccc2)c(C(C)C)c(=O)[nH]c1=O		IIIB		MT-4	0.03 µM
[O-][n+]1nc2ccnn2c2ccccc21		IIIB		MT-4	>200 µM
CC1Cn2c(=O)[nH]c3cccc(c32)CN1CCO		IIIB		MT-4	>776 µM
C=CCN1C(C)C(=S)Nc2ccc(Cl)cc2S1(=O)=O				MT-4	>16 µM
CCC(C)[C@@H](C(=O)N[C@@H](Cc1ccccc1)[C@H](O)CN(CC(C)C)S(=O)(=O)c1ccc(/C=N/O)cc1)N1CCN(Cc2cccc(C)n2)C1=O				MT-4	0.002 µM
C=CCCc1cccc(Cc2[nH]c(=S)[nH]c(=O)c2CC)c1		IIIB		MT-4	>80 µM
Cc1ccc(S(=O)(=O)c2ccsc2N)cc1		IIIB		CEM + CEM/O	12.7 µg/mL
CC(C)=CCC/C(C)=C/CN1Cc2cccc3[nH]c(=O)n(c23)CC1C		IIIB		MT-4	>44 µM
COCc1cccc(CN2CCN([C@H](C(=O)N[C@@H](Cc3ccccc3)[C@H](O)CN(CC(C)C)S(=O)(=O)c3ccc(/C=N/O)cc3)C(C)(C)C)C2=O)n1				MT-4	0.002 µM
CCc1c(Oc2cc(C)cc(C)c2)n(Cc2ccncc2)c(=O)[nH]c1=O				MT-4	0.018 µg/mL
Nc1sccc1S(=O)(=O)c1ccc(Cl)cc1		IIIB		CEM + CEM/O	>20 µg/mL
CC1C(=S)Nc2ccc(Cl)cc2S(=O)(=O)N1Cc1cc(Cl)cc(Cl)c1				MT-4	10 µM
Cc1cc(COC(CO)CO)c(F)cc1F				CEM	>500 µg/mL
CC(=O)Nc1ncc(-c2ccc(S(=O)(=O)N(CC(C)C)C[C@@H](O)[C@H](Cc3ccccc3)NC(=O)O[C@H]3CO[C@H]4OCC[C@H]43)cc2)[nH]1		LAI		MT-4	0.02 µM
C#CC(C)=CCN1Cc2cccc3[nH]c(=O)n(c23)CC1C		IIIB		MT-4	>707 µM
OCC(CO)OCc1ccc(F)cc1F				CEM	>500 µg/mL
CCC(C)[C@@H](C(=O)N[C@@H](Cc1ccccc1)[C@H](O)CN(CC1CCCC1)S(=O)(=O)c1ccc(/C=N/O)cc1)N1CCN(Cc2cccc(C)n2)C1=O			50% human serum	MT-4	0.004 µM
CCOCn1c(Cc2cccc(CCC3CO3)c2)c(CC)c(=O)[nH]c1=O		RT-K103N Y181C Mutant NNRTI-resistant		MT-4	80 µM
CC(C)CN(C[C@@H](O)[C@H](Cc1ccccc1)NC(=O)O[C@H]1CO[C@H]2OCC[C@H]21)S(=O)(=O)c1ccc(-c2csc(NCCN3CCCC3)n2)cc1		LAI		MT-4	0.013 µM
CCn1cc(C(=O)O)c(=O)c2cc(F)c(N3CCN(c4ccccc4OC)CC3)c(OC(F)F)c21		RF		MT-4	0.3 µM
Cc1cnccc1C(=O)N[C@H](CSc1ccccc1)[C@@H](O)CN1CCN(Cc2cccnc2)C[C@H]1C(=O)NC(C)(C)C		RF		MT-2	0.444 µg/mL
O=S(=O)(O)c1cc(S(=O)(=O)O)c2cc(OS(=O)(=O)c3cccc4c(S(=O)(=O)Oc5ccc6cc(S(=O)(=O)O)cc(S(=O)(=O)O)c6c5)cccc34)ccc2c1		HE		MT-4	8.1 µM
CCOCn1c(Cc2cccc(OCC=O)c2)c(CC)c(=O)[nH]c1=O		IIIB		MT-4	8 µM
CCc1c(Cc2cccc(Cc3nc(SC)n(C)c(=O)c3CC)c2)nc(SC)nc1OC	RT-K103N Y181C	RT-K103N+Y181C NNRTI-resistant		MT-4	>80 µM
Cc1ccc(CN2CCN([C@H](C(=O)N[C@@H](Cc3ccccc3)[C@H](O)CN(CC(C)C)S(=O)(=O)c3ccc(/C=N/O)cc3)C(C)(C)C)C2=O)cn1				MT-4	0.001 µM
C=CCN1Cc2cccc3[nH]c(=O)n(c23)C[C@H]1C		IIIB		MT-4	>592 µM
CC1C(=S)Nc2ccc(Cl)cc2S(=O)(=O)N1CC=Cc1ccccc1				MT-4	>16 µM
CCOC(=O)c1cc2c3cc(OC)ccc3c3ccc(N=[N+]=[N-])cc3n2c1C				MT-4	>300 µM
[O-][n+]1nc2c(-c3ccccc3)cnn2c2ccccc21		IIIB		MT-4	>200 µM
O=[N+]([O-])c1cc(COCCO)c(F)cc1F				CEM	>500 µg/mL
CC(C)CN(C[C@@H](O)[C@H](Cc1ccccc1)NC(=O)O[C@H]1CO[C@H]2OCC[C@H]21)S(=O)(=O)c1ccc(-c2csc(N)n2)cc1	PR-L010F M046I M071V I084V			MT-4	0.273 µM
CCc1c(Cc2cc(C)cc(C)c2)n(COCC2CC=CCC2)c(=O)[nH]c1=O	RT-K103N Y181C	NNRTI-resistant (RT K103N Y181C) A17		MT-4	>100 µM
CCOC(=O)c1cc2c3cc(OC)ccc3c3ccc(Cl)cc3n2c1C				MT-4	>200 µM
CC(=O)Nc1sc(Cl)cc1S(=O)(=O)c1ccccc1[N+](=O)[O-]		IIIB		CEM + CEM/O	>40 µg/mL
CC(C)c1c(C(=O)c2cc(F)cc(F)c2)n(Cc2ccccn2)c(=O)[nH]c1=O				MT-4	0.053 µg/mL
CCCc1c(Cc2ccccc2)n(COC/C=C/c2ccccc2)c(=O)[nH]c1=O	RT-K103N Y181C	NNRTI-resistant (RT K103N Y181C) A17		MT-4	>100 µM
CC(C)CN(C[C@@H](O)[C@H](Cc1ccccc1)NC(=O)O[C@H]1CO[C@H]2OCC[C@H]21)S(=O)(=O)c1ccc(-c2coc(N)n2)cc1		LAI		MT-4	0.004 µM
C=C(C)[C@@H]1CC[C@]2(C(=O)NCCCCCCCC(=O)N[C@@H](CC(C)C)[C@@H](O)CC(=O)O)CC[C@]3(C)[C@H](CC[C@@H]4[C@@]5(C)CC[C@H](O)C(C)(C)[C@@H]5CC[C@]43C)[C@@H]12		MN		MT-4	0.04 µM
O=S(=O)(c1cccc2cnccc12)N1CCNCC1		IIIB		MT-4	>14.8 µg/mL
Cc1cc(C)cc(C(=O)c2c(C(C)C)c(=O)[nH]c(=O)n2Cc2ccnc(C)c2)c1				MT-4	0.0098 µg/mL
CC=CCN1C(C)C(=S)Nc2ccc(Cl)cc2S1(=O)=O				MT-4	1.4 µM
CN[C@@H]1[C@H](O[C@H]2[C@H](O[C@H]3[C@H](O)[C@@H](O)[C@H](N=C(N)N)[C@@H](O)[C@@H]3N=C(N)N)O[C@@H](C)[C@]2(O)C=O)O[C@@H](CO)[C@H](O)[C@H]1O		IIIB		MT-4	>200 µM
CCc1c(Cc2cc(C)cc(C)c2)n(COC2C=CCCC2)c(=O)[nH]c1=O	RT-Y181C	NNRTI-resistant (RT Y181C) N119		MT-4	>100 µM
CCC(C)[C@@H](C(=O)N[C@@H](Cc1ccccc1)[C@H](O)CN(CC(C)C)S(=O)(=O)c1ccc(/C=N/O)cc1)N1CCN(Cc2cccnc2C)C1=O				MT-4	0.002 µM
COC(=O)c1ccccc1S(=O)(=O)c1ccsc1N		IIIB		CEM + CEM/O	11 µg/mL
CCOC(=O)c1cc(-c2cccc(N)c2)n(-c2ccccc2)c1C				MT-4	>300 µM
CCc1c(Cc2cccc(Cc3nc(SC)[nH]c(=O)c3CC)c2)nc(SC)[nH]c1=O				MT-4	>100 µM
CCCc1c(Cc2cc(C)cc(C)c2)n(COC/C=C/c2ccccc2)c(=O)[nH]c1=O	RT-Y181C	NNRTI-resistant (RT Y181C) N119		MT-4	6 µM
Cc1c(NS(C)(=O)=O)cccc1C(=O)N[C@@H](Cc1ccccc1)[C@@H](O)CN1C[C@H]2CCCC[C@H]2C[C@H]1C(=O)NC(C)(C)C		RF		MT-2	2.085 µg/mL
C=CCOCn1c(Cc2cccc(Cc3c(CC)c(=O)[nH]c(=O)n3COCC=C)c2)c(CC)c(=O)[nH]c1=O				MT-4	34 µM
COc1cccc(-c2nc(-c3ccc(S(=O)(=O)N(CC(C)C)C[C@@H](O)[C@H](Cc4ccccc4)NC(=O)O[C@H]4CO[C@H]5OCC[C@H]54)cc3)co2)c1	PR-L010F M046I M071V I084V			MT-4	0.77 µM
CCOCn1c(Cc2ccccc2)c(C(C)C)c(=O)[nH]c1=O	RT-K103N Y181C	NNRTI-resistant (RT K103N Y181C) A17		MT-4	>100 µM
CCOC(=O)c1cnn2c1n[n+]([O-])c1cc(Cl)ccc12		IIIB		MT-4	>200 µM
CC1C(=O)Nc2ccc(Cl)cc2S(=O)(=O)N1CC1CC1				MT-4	2.2 µM
CCCc1c(Cc2cc(C)cc(C)c2)n(COC2C=CCCC2)c(=O)[nH]c1=O	RT-K103N Y181C	NNRTI-resistant (RT K103N Y181C) A17		MT-4	>100 µM
[O-][n+]1nc2ccnn2c2ccc(Cl)cc21		IIIB		MT-4	>200 µM
C=CCOc1cccc(Cc2nc(SC)[nH]c(=O)c2CC)c1		RT-K103N Y181C Mutant NNRTI-resistant		MT-4	>80 µM
CCc1c(Sc2cc(Cl)cc(Cl)c2)n(Cc2ccncc2)c(=O)[nH]c1=O				MT-4	0.003 µg/mL
CCOC(=O)CNS(=O)(=O)c1cc(Cl)ccc1N				MT-4	>200 µM
Cn1c2ccccc2c(=O)c2c(O)cccc21		IIIB		CEM	>5.6 µg/mL
CC(C)(C)NC(=O)[C@@H]1C[C@@H]2CCCC[C@@H]2CN1C[C@@H](O)[C@H](Cc1ccccc1)NC(=O)c1cccc(O)c1F		IIIB		CEM	1.19 µg/mL
O=[N+]([O-])c1cnn2c1nnc1cc(Cl)ccc12		IIIB		MT-4	>1.4 µM
OCC(CO)OCc1cc(I)c(F)cc1F				CEM	>500 µg/mL
O=[N+]([O-])c1ccc(/C=N/Nc2ccnc3c(C(F)(F)F)cc(Cl)cc23)o1		IIIB		CEM	0.0165 µg/mL
O=[N+]([O-])c1ccc2c(c1)[n+]([O-])nc1ccnn12		IIIB		MT-4	>39 µM
CC(C)c1c(C(=O)c2cc(F)cc(F)c2)n(Cc2cccnc2)c(=O)[nH]c1=O				MT-4	0.049 µg/mL
CCN1C(C)Cn2c(=S)[nH]c3cc(Cl)cc(c32)S1(=O)=O				MT-4	46 µM
Cc1c(N)cccc1C(=O)N[C@@H](Cc1ccccc1)[C@@H](O)CN1C[C@H]2CCCC[C@H]2C[C@H]1C(=O)NC(C)(C)C		RF		MT-2	0.243 µg/mL
CCc1c(C(=O)c2cc(C)cc(C)c2)n(Cc2cc(C)nc(C)c2)c(=O)[nH]c1=O				MT-4	0.0026 µg/mL
CCOC(=O)c1cnn2c1nnc1ccc(Cl)cc12		IIIB		MT-4	>5.2 µM
CCc1c(Cc2cccc(Cc3nc(SC(C)CC)[nH]c(=O)c3CC)c2)nc(SC(C)CC)[nH]c1=O				MT-4	>27 µM
Cc1cc(Cn2c(C(=O)c3cc(Cl)cc(Cl)c3)c(C(C)C)c(=O)[nH]c2=O)cc(C)n1				MT-4	0.0028 µg/mL

6 of the rows above, restated:

SMILES | changes | strain or isolate | setting | cell line | result
Cc1ccc(S(=O)(=O)c2ccsc2N)cc1 |  | IIIB |  | CEM + CEM/O | 12.7 µg/mL
O=[N+]([O-])c1cc(COCCO)c(F)cc1F |  |  |  | CEM | >500 µg/mL
C#CC(C)=CCN1Cc2cccc3[nH]c(=O)n(c23)CC1C |  | IIIB |  | MT-4 | >707 µM
CC(C)c1c(C(=O)c2cc(C(F)(F)F)cc(C(F)(F)F)c2)n(Cc2ccccn2)c(=O)[nH]c1=O |  |  |  | MT-4 | 1.8 µg/mL
CCN1C(C)Cn2c(=S)[nH]c3cc(Cl)cc(c32)S1(=O)=O |  |  |  | MT-4 | 46 µM
CC(C)(C)NC(=O)[C@@H]1C[C@@H]2CCCC[C@@H]2CN1C[C@@H](O)[C@H](Cc1ccccc1)NC(=O)c1cccc(O)c1F |  | IIIB |  | CEM | 1.19 µg/mL